Measured values taken from PMC4118376 (Sensors (Basel, Switzerland), 2014).
Numbering of substitutions follows the chain as printed.

T1: SEB peptide 4 (VLAESQPDPKPDELHK) (Staphylococcus aureus (synthetic …, biotin (position not given)))
T1 chain: VLAESQPDPKPDELHK

T2: SEB peptide fragment 9 (VKSIDQFLYFDLIYSI) (Staphylococcus aureus (synthetic …, biotin (position not given)))
T2 chain: VKSIDQFLYFDLIYSI

B1: sdAb H9-A1 (VHH)
VHH: EVQLQASGGGLVQPGGSLRLSCAASGSAVSIGFMAWYRQAPGKQRELVARISSSGLPDYADTVKGRFTISRDNTRKTVSLQMNSLNPDDTAVYYCNARLYDGSSAWGQGTQVTVSS
notes: source: E. coli Rosetta (DE3), periplasm, purified (IMAC, size exclusion chromatography)
B2: sdAb H9-D7 (VHH)
VHH: DVQLQASGGGLVQVGGSLRLSCAASGSTFRIGYMSWHRQAPGKSRELVARISSGGTTDYLDSVKDRFTISRDNTKNTVYLQMNSLEPEDTAVYYCNVVDYRANEYWGQGTQVAVSS
notes: as for B1
B3: sdAb H9-H11 (VHH)
VHH: DVQLQASGGGLVQPGGSLRLSCAASESAVRIGFMGWHRQAPGNQRERVAQISSTGLPTYADAVKGRFTISRDNTKNTVYLQMNSLNADDTAVYFCNARLYDGTSVWGQGTQVTVSS
notes: source: E. coli, periplasm, purified (IMAC, size exclusion chromatography)
B4: sdAb S222-A2 (VHH)
VHH: B3 VHH with Q13E, E26G, R30S, N43K, L56I, T58N, A62T, V78M, V105A
notes: as for B3
B5: sdAb H9-B11 (VHH)
VHH: B2 VHH with S35G, H37Y, S44P, S62F, T74A, N83S, E86K, D99N, A113T
notes: as for B3
B6: sdAb E9 (VHH)
VHH: EVQLQASGGGLVQAGGSLRLSCAASGRDFSDYAMAWFRQAPGKEREFVGTISWYTNTNYADSVKGRFSISRDNAKNTVYLQMSSLKPEDTAVYYCAAAPARYYNPYKRESEYGYWGQGTQVTVSS
notes: as for B1
B7: sdAb B12 (VHH)
VHH: EVQLQASGGGLVQAGGPLRLTCAVSGPTFGSYALGWFRQAPGKEREFVAAVSWSGGDTYADSVKGRFIISRDNAKNTVYLQMNNLEPEDTAVYSCARMQDRYYISKDAKDYGYWGQGTQVTVSS
notes: as for B1
B8: sdAb F1 (VHH)
VHH: DVQLQASGGGLVQAGGSLRLTCAASLHTFGSYAMGWFRQAPGKEREFVAAISWSGGDTYSDSVKGRFTISRDNAKNTVYLQMNSLEPEDTAVYSCAAVEARYYISTDAKDYGYWGQGTQVTVSS
notes: as for B1
B9: sdAb A10 (VHH)
VHH: EVQLQASGGGLVRAGGTLRLTCDATTPTFGSYAMGWFRQAPGKEREFVSAISWSGGDTYADSVKGRFTISRDNTRNRVYLQMNDLEPDDTAIYTCARTTARYYISKDAKDYDYWGQGTQVTVSS
notes: as for B1
B10: sdAb D9 (VHH)
VHH: EVQLQASGGGLAQAGDSLRLSCAASIRTFGSYAMGWFRQAPGKEREFVAAISWSGGDTYADSAKGRFTISRDNAKNMMYLQMNSLAPEDTAVYFCAIVEAKYYISKDARDYGYWGQGTQVFVSS
notes: as for B1
B11: sdAb B1 (VHH)
VHH: B7 VHH with P17S, S62T, V63A, T121I
notes: as for B1
B12: sdAb H9 (VHH)
VHH: B7 VHH with P17S, G117E
notes: as for B1
B13: sdAb H12 (VHH)
VHH: B6 VHH with Q13L, A14T, D28N, D31N, D61N, R101M, K107T
notes: as for B1
B14: sdAb E2 (VHH)
VHH: B8 VHH with D1E, L26G, H27R, S60A, E86A, E99G, T106K
notes: as for B1

Biological target: T1, SEB peptide 4 (VLAESQPDPKPDELHK)
Test: SPR
Conditions: both partners purified

Binder	binding result
B1	no binding
B2	no binding
B3	no binding
B4	no binding
B5	no binding

Biological target: T2, SEB peptide fragment 9 …
Test: SPR
Conditions: both partners purified

Binder	binding result
B6	binds
B7	binds
B8	binds
B9	binds
B10	binds
B11	binds
B12	binds
B13	binds
B14	binds
B1	no binding
B2	no binding
B3	no binding
B4	no binding
B5	no binding
